Reference: PubChem BioAssay AID504761 (Drosophila RNAi Screening Center, 2011)

Purpose: 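Genome-wide fly cell screen for genes dengue virus requires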 (primary screen)
System: D.Mel-2 cells from Drosophila
Knock-down reagent: long dsRNA against Drosophila genes
Conditions: infection with dengue virus type 2; dose and infection time not stated
Detection: 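Per well on two replicate plates, imaging gave the percent of cells positive for viral envelope protein, ranked by infection, and a nuclear count of cells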
Direction: infection score: higher = more virus-infected cells; cell count: higher = more cells in the well
Call rule: 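Low infection ranks in the two replicates (chance level up to 0.065) followed by a retest with a 1.5-fold or larger significant decrease, p below 0.05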
Meaning of the calls: active = confirmed: knock-down lowers infection; inactive = not picked or not confirmed
The screen tested about 22,000 reagents; shown is a random part of those that have a named target and a result. Of all reagents, 116 (0.52%) were called active. 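Calls depend on retest data that are not deposited; infection was ranked per plate without normalising between plates; the unit of the infection score is not given.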 The raw values are shown without normalisation. Unmarked entries are inactive. Not all columns of the deposit are shown. The record does not give: the amount of reagent, the time to read-out.

CG14200 [DRSC19555] → infection score, replicate 1 = 3.75; cell count, replicate 1 = 2851
CG14200 [DRSC22979] → infection score, replicate 1 = 1.51; cell count, replicate 1 = 6232
CG14200 [DRSC25784] → infection score, replicate 1 = 1.54; cell count, replicate 1 = 6418
Dek [DRSC07418] → infection score, replicate 1 = 11; cell count, replicate 1 = 6995
Dek [DRSC23928] → infection score, replicate 1 = 4.43; cell count, replicate 1 = 6621
caps [DRSC11333] → infection score, replicate 1 = 1.35; cell count, replicate 1 = 5937
caps [DRSC22224] → infection score, replicate 1 = 4.11; cell count, replicate 1 = 6501

Next part; the last 2 above are carried over.
caps [DRSC11333] → infection score, replicate 1 = 1.35; cell count, replicate 1 = 5937
caps [DRSC22224] → infection score, replicate 1 = 4.11; cell count, replicate 1 = 6501
Cp110 [DRSC20630] → infection score, replicate 1 = 1.58; cell count, replicate 1 = 6384
Cp110 [DRSC21716] → infection score, replicate 1 = 13.9; cell count, replicate 1 = 6451
hoe1 [DRSC00265] → infection score, replicate 1 = 4.14; cell count, replicate 1 = 5577
hoe1 [DRSC00333] → cell count, replicate 1 = 509
hoe1 [DRSC00353] → cell count, replicate 1 = 504
